Values from PubChem BioAssay AID504761 (Drosophila RNAi Screening Center, 2011)

Assay: 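Genome-wide fly cell screen for genes dengue virus requires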 (primary screen)
System: D.Mel-2 cells from Drosophila
Reagent: long dsRNA against Drosophila genes
Treatment: infection with dengue virus type 2; dose and infection time not stated
Measured: 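Per well on two replicate plates, imaging gave the percent of cells positive for viral envelope protein, ranked by infection, and a nuclear count of cells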
Scale: infection score: higher = more virus-infected cells; cell count: higher = more cells in the well
Active means: 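Low infection ranks in the two replicates (chance level up to 0.065) followed by a retest with a 1.5-fold or larger significant decrease, p below 0.05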
Calls: active = confirmed: knock-down lowers infection; inactive = not picked or not confirmed
In all, the deposit lists about 22,000 reagents; this is an unselected part of those that have a named target and a result. In the full data, 116 (0.52%) got an active call. 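Calls depend on retest data that are not deposited; infection was ranked per plate without normalising between plates; the unit of the infection score is not given.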 Raw values vary from plate to plate and are shown uncorrected. A number with no mark means an inactive call. A plus sign joins genes that one reagent is predicted to hit. The record does not give: the amount of reagent, the time to read-out.

infection score, replicate 1 | infection score, replicate 2 | cell count, replicate 1 | cell count, replicate 2 | predicted target | amplicon
8.07 | 3.69 | 5194 | 4910 | CG7246 | DRSC18422
22.6 | 20.2 | 5766 | 4271 | sut3 | DRSC07702
1.08 | 3.72 | 6376 | 6211 | sut3 | DRSC24322
0.58 | 3.58 | 6014 | 6036 | Pmm2 | DRSC09780
8.29 | 15.5 | 1411 | 6820 | Pmm2 | DRSC28987
0.43 | 3.86 | 6078 | 5932 | CG13046 | DRSC09927
10.2 | 39.4 | 6514 | 5293 | CG3358 | DRSC04992
10.3 | – | 4520 | 431 | Cpr30B | DRSC02728
6.26 | 6.11 | 7177 | 6071 | Cpr30B | DRSC25204
14.9 | 20.1 | 5540 | 3724 | CG2082 | DRSC12125
6.8 | 3.61 | 6483 | 6680 | CG2082 | DRSC26456
2.02 | 2.07 | 1338 | 1061 | beta'COP | DRSC03492
5.18 | 2.82 | 1024 | 923 | beta'COP | DRSC26650
20.1 | 4.64 | 4919 | 6752 | CG9541 | DRSC03257
4.62 | 3.59 | 6045 | 6682 | Gr36b | DRSC21637
14.3 | 12.5 | 6275 | 6221 | Gr36b | DRSC29818
3.63 | 4.83 | 6400 | 5713 | Lcp65Ae | DRSC11212
3.38 | 1.26 | 5829 | 5548 | CG15014 | DRSC08468
30.7 | 27.7 | 6017 | 6285 | CG15014 | DRSC27374
4.84 | 6.21 | 1136 | 3287 | CG10737 | DRSC05999
7.54 | 4.86 | 6369 | 6146 | CG10737 | DRSC26112
6.88 | 1.86 | 5658 | 6576 | CG14223 | DRSC19580
4.33 | 5.78 | 6473 | 6069 | CG14223 | DRSC24816
18.7 | 2.95 | 5599 | 1390 | GstE7 | DRSC06677
23.8 | 33.8 | 5302 | 5092 | CG9822 | DRSC04568
2.24 | 8.4 | 6306 | 5932 | CG32668 | DRSC18879
4.61 | 17.4 | 6918 | 6268 | cola + swif | DRSC06826
3.29 | 6.07 | 6755 | 5473 | cola + swif | DRSC21965
4.63 | 5.71 | 5205 | 5727 | wun | DRSC07719
11.7 | 8.75 | 5906 | 6400 | Pka-R1 | DRSC11674
4.91 | 9.95 | 6267 | 6230 | Pka-R1 | DRSC11875
8.87 | 18.1 | 6100 | 5333 | Pka-R1 | DRSC25205
35.8 | 27.9 | 5862 | 3985 | Oatp58Da | DRSC04365
11.6 | 7.75 | 6009 | 6384 | Oatp58Da | DRSC25499
3.18 | 2.94 | 6376 | 6087 | CG4098 | DRSC10399
17.4 | 19.6 | 4426 | 4302 | Jabba | DRSC06521
0.83 | 1.76 | 6010 | 6254 | CG34166 | DRSC02482
3.78 | 19.4 | 1192 | 5715 | CG34166 | DRSC27934
2.18 | 3.11 | 5885 | 5761 | Lcp65Ab2 + Lcp65Ab1 | DRSC10340
1.03 | 6.22 | 6186 | 6111 | Lcp65Ab2 + Lcp65Ab1 | DRSC10343
15.3 | 3.46 | 6569 | 5890 | Lcp65Ab2 + Lcp65Ab1 | DRSC29739
3.49 | 6.33 | 6337 | 6418 | CG16964 | DRSC02546
13.5 | 5.75 | 6314 | 6451 | CG16964 | DRSC26799
4.03 | 10.8 | 5961 | 6387 | Traf6 | DRSC18725
0.93 | 1.82 | 5929 | 6703 | Gld2 | DRSC23037
15.9 | 9.56 | 5286 | 6927 | Gld2 | DRSC27759
0.77 | 1.63 | 6405 | 6441 | AlkB | DRSC19115
2.15 | 1.29 | 6661 | 6642 | Oga | DRSC15901
5.86 | 8.05 | 6295 | 6208 | DCTN1-p150 | DRSC11175
2.26 | 1.15 | 5698 | 4074 | DCTN1-p150 | DRSC23441
20 | 35.2 | 6356 | 4841 | CG1603 | DRSC06602
12.6 | 13 | 6608 | 6419 | CG1603 | DRSC27982
7.79 | 3.19 | 5558 | 5646 | CG17601 | DRSC20639
3.01 | 0.96 | 6776 | 7194 | CG31871 | DRSC02567
3.69 | 4.34 | 6746 | 6704 | CG31871 | DRSC02571
5.26 | 6.74 | 6041 | 5754 | CG31871 | DRSC26619
1.07 | 3.91 | 5816 | 4726 | Dora | DRSC19614
5.17 | 1.79 | 5740 | 5975 | Dora | DRSC19781
2.59 | 0.23 | 4525 | 6201 | Dora | DRSC20034
7.24 | 2.22 | 2874 | 5800 | Dora | DRSC20035
11.4 | 2.08 | 6758 | 6884 | Dora | DRSC27055
15.3 | 3.81 | 4582 | 1917 | Dora | DRSC28428
18.3 | 1.12 | 5885 | 6713 | CG34406 (retired record) | DRSC00523
1.67 | 3.91 | 6715 | 6238 | CG34406 (retired record) | DRSC00606
13.2 | 4.93 | 5705 | 5805 | CG34406 (retired record) | DRSC25843
3.57 | 3.75 | 3728 | 3385 | Cpsf73 | DRSC16291
7.89 | – | 2306 | 233 | Cpsf73 | DRSC28954
10.5 | 28.8 | 5886 | 5515 | Tti1 | DRSC15163
15.3 | 11.4 | 5574 | 6636 | Tti1 | DRSC27694
6.22 | 2.3 | 6235 | 6692 | yellow-c + CIAPIN1 | DRSC01898
3.8 | 6.21 | 6137 | 5908 | Tsp42Eo | DRSC06184
6.39 | 3.22 | 6146 | 6779 | Jon44E | DRSC07216
4.45 | 4.24 | 6333 | 5663 | Jon44E | DRSC25190
2 | 1.27 | 5841 | 6510 | CG3342 | DRSC18304
15 | 13.4 | 5778 | 6598 | CG3342 | DRSC30048

Part of the list above, limited to “infection score, replicate 1”:
Cpsf73 [DRSC16291]	3.57
Cpsf73 [DRSC28954]	7.89
Tti1 [DRSC15163]	10.5
Tti1 [DRSC27694]	15.3
yellow-c + CIAPIN1 [DRSC01898]	6.22
